# Patent US6362207B1, “Methods of treating viral infections with benzimidazoles” (priority 1995, dated 2002)
# Legend:
# [1] = system: HIV, chronically infected cells; assay: Virus Resistance Studies; type: cell-based; conditions: after 20 months
# HIV = type: cell-based
structure (smiles),measurement,setting,value
"c1ccc2[nH]c(-c3cscn3)nc2c1 [thiabendazole, 2-(4-thiazolyl)-1-H-benzimidazole]",development of resistant virus strains,[1],no resistant virus strains
same,"therapeutic index (TI), ratio of toxic dose to efficacious dose",HIV,2.8
